The list shows a part of the results, in another mix than the full data. Results filed as inconclusive are left out. Where a call stands in place of a potency, no number is given. The source made the active and inactive calls. The call rests on the fitted dose curve; in most records, active means well fitted inhibition curve with a large enough effect; inconclusive means small, poorly fitted or top-dose-only effect; inactive means no such curve, though single readings can be large or run the other way.
Experiment: Confirmation assay for measurement of the activity of small molecule inhibitors on Zika virus induced Caspase-3 activity in human astrocytes
Description: National Center for Advancing Translational Sciences [NCATS] Johns Hopkins University School of Medicine Florida State University Assay Overview: Increase in the Caspase-3 activity indicates an activation of apoptosis cell death pathway caused by Zika virus infection in certain types of neuronal cells including human neural progenitor cells (hNPCs), astrocytes, and astrocytoma cell line (SNB-19). This cell-based caspase-3 activity assay measures the increased caspase-3 activity in the human astrocytes after a 6-hour Zika virus infection with a luminescence readout. A decrease in the luminescence signal in this assay by small molecule treatment indicates an inhibitory effect of that small molecule on the Zika virus induced caspase-3 activity that may correlate with its effect on reduction of Zika virus caused cell death.
Assay Protocol Summary: The medium for astrocytes contains AM basal medium (ScienCell, Cat.# 1801), AGS (ScienCell, Cat.# 1801), 10% FBS, and 1% Pen/Strep. A Caspase-Glo 3/7 assay kit (catalog number G8092; Promega, Madison, WI) was used to detect caspase-3 activity induced by Zika virus infection in human cells. […] The luminescence intensity of the assay plates was measured using a ViewLux plate reader (PerkinElmer). […] The percentage inhibitions of the increased Caspase-3 activity by small molecule inhibitors were then calculated.

Row | Structure (SMILES) | Potency
1 | CCOP(=O)(CC)Oc1ccc([N+](=O)[O-])cc1 (configuration not stated) | inactive
2 | C/C1=C2N=C(/C=C3N=C(/C(C)=C4\[N-][C@@](C)([C@@H]5N=C1[C@](C)(CCC(=O)NC[C@@H](C)OP(=O)([O-])O[C@H]1[C@@H](O)[C@@H](n6cnc7cc(C)c(C)cc76)O[C@@H]1CO)[C@H]5CC(N)=O)[C@@](C)(CC(N)=O)[C@@H]4CCC(N)=O)[C@@](C)(CC(N)=O)[C@@H]\3CCC(N)=O)C(C)(C)[C@@H]/2CCC(N)=O.[C-]#N.[Co+3] | active: 8.69 µM
